The test system of experiment [1] is Mus musculus. Nature of the experiment: Tested for anticancer screening activity against mouse L1210 lymphoid leukemia for number of survivors on day 5 for each group of male mice(6) at 500 mg/kg.
In experiment [2] the test system is Mus musculus. Nature of the experiment: Tested for test/Control evaluation incorporating mean survival time over 30 days at 62.50 mg/kg.
Experiment [3] has as its system Mus musculus. Nature of the experiment: Tested for anticancer screening activity against mouse L1210 lymphoid leukemia for number of survivors on day 5 for each group of female mice(6) at 15.63 mg/kg.
Experiment [4] relates to Mus musculus. Nature of the experiment: Tested for anticancer screening activity against mouse L1210 lymphoid leukemia for number of survivors on day 5 for each group of female mice(6) at 250 mg/kg.
Experiment [5] concerns Mus musculus. Nature of the experiment: Tested for test/Control evaluation incorporating mean survival time over 30 days at dosage of 250 mg/kg in male mice.
In experiment [6] the test system is Mus musculus. Briefly: Tested for test/Control evaluation incorporating mean survival time over 30 days at dosage of 125 mg/kg.
Experiment [7] deals with Mus musculus. Briefly: Tested for anticancer screening activity against mouse L1210 lymphoid leukemia for number of survivors on day 5 for each group of female mice(6) at 500 mg/kg.
The subject of experiment [8] is Mus musculus. Briefly: Tested for anticancer screening activity against mouse L1210 lymphoid leukemia for number of survivors on day 5 for each group of female mice(6) at 125 mg/kg.
Experiment [9] deals with Mus musculus. Nature of the experiment: Tested for test/Control evaluation incorporating mean survival time over 30 days at 31.30 mg/kg.
Experiment [10] deals with Mus musculus. Nature of the experiment: Tested for test/Control evaluation incorporating mean survival time over 30 days at dosage of 125 mg/kg in male mice.
Experiment [11] concerns Mus musculus. Briefly: Tested for test/Control evaluation incorporating mean survival time over 30 days at 62.50 mg/kg in male mice.
The test system of experiment [12] is Mus musculus. Briefly: Tested for anticancer screening activity against mouse L1210 lymphoid leukemia for number of survivors on day 5 for each group of female mice(6) at 62.50 mg/kg.
Experiment [13] concerns Mus musculus. Briefly: Tested for test/Control evaluation incorporating mean survival time over 30 days at dosage of 250 mg/kg.
In experiment [14] the test system is Mus musculus. Briefly: Tested for test/Control evaluation incorporating mean survival time over 30 days at 15.63 mg/kg.
Experiment [15] concerns Mus musculus. Nature of the experiment: Tested for anticancer screening activity against mouse L1210 lymphoid leukemia for number of survivors on day 5 for each group of female mice at 31.30 mg/kg.
In experiment [16] the test system is Mus musculus. Nature of the experiment: Tested for test/Control evaluation incorporating mean survival time over 30 days at 125 mg/kg.
Experiment [17] has as its system Mus musculus. Briefly: Anticancer screening activity against mouse L1210 lymphoid leukemia for number of survivors on day 5 for each group of female mice(6) at 31.30 mg/kg.
For experiment [18], the system named is Mus musculus. Nature of the experiment: Anticancer screening activity against mouse L1210 lymphoid leukemia for number of survivors on day 5 for each group of female mice(6) at 15.63 mg/kg.
The subject of experiment [19] is Mus musculus. Nature of the experiment: Tested for test/Control evaluation incorporating mean survival time over 30 days at 25 mg/kg.
Experiment [20] concerns Mus musculus. Briefly: Anticancer screening activity against mouse L1210 lymphoid leukemia for number of survivors on day 5 for each group of female mice(6) at 62.50 mg/kg.
The test system of experiment [21] is Mus musculus. Nature of the experiment: Tested for test/Control evaluation incorporating mean survival time over 30 days at dosage of 31.30 mg/kg.
Experiment [22] concerns Mus musculus. Nature of the experiment: Tested for test/Control evaluation incorporating mean survival time over 30 days at 250 mg/kg.
For experiment [23], the system named is Mus musculus. Nature of the experiment: Anticancer screening activity against mouse L1210 lymphoid leukemia for number of survivors on day 5 for each group of 6 female mice(6) at 500 mg/kg.
Experiment [24] has as its system Mus musculus. Briefly: Tested for test/Control evaluation incorporating mean survival time over 30 days at dosage of 62.50 mg/kg.
In experiment [25] the test system is Mus musculus. Briefly: Anticancer screening activity against mouse L1210 lymphoid leukemia for number of survivors on day 5 for each group of female mice(6) at 250 mg/kg.
Experiment [26] deals with Mus musculus. Briefly: Tested for test/Control evaluation incorporating mean survival time over 30 days at dosage of 500 mg/kg.
In experiment [27] the test system is Mus musculus. Briefly: Anticancer screening activity against mouse L1210 lymphoid leukemia for number of survivors on day 5 for each group of female mice(6) at 125 mg/kg.
The subject of experiment [28] is Mus musculus. Briefly: Tested for test/Control evaluation incorporating mean survival time over 30 days at 500 mg/kg.

On to `O=[P@]1(N(CCCl)CCCl)N[C@H](c2ccccc2)CCO1`, for which the Toxicity day survivors was 5 in the experiment with Mus musculus [1]; 6 in the experiment with Mus musculus [3]; 5 in the experiment with Mus musculus [4]; 3 with Mus musculus [7]; 6 in the experiment with Mus musculus [8]; 6 in the experiment on Mus musculus [12]. This molecule gave a Toxicity day survivors in the experiment with Mus musculus [15] of 6. In addition, the T/C in the experiment with Mus musculus [2] came out at 106; in the experiment on Mus musculus [5], 120; in the experiment on Mus musculus [6] it was 124; with Mus musculus [9], 100; in the experiment on Mus musculus [10], 106; in the experiment with Mus musculus [11], 104. Moreover, the T/C was determined as 149 in the experiment on Mus musculus [13] and 100 in the experiment with Mus musculus [14].
`O=[P@@]1(N(CCCl)CCCl)N[C@@H](c2ccccc2)CCO1.O=[P@@]1(N(CCCl)CCCl)N[C@H](c2ccccc2)CCO1`: the T/C was 120 in the experiment on Mus musculus [16]; 94 with Mus musculus [19]; 105 in the experiment with Mus musculus [2]; 106 with Mus musculus [21]; 122 with Mus musculus [22]; 109 with Mus musculus [24]. Also, the T/C in the experiment with Mus musculus [13] was found to be 105; in the experiment with Mus musculus [14], 103; with Mus musculus [26] it was 204; with Mus musculus [28], 108. The Toxicity day survivors came to 6 with Mus musculus [17]; 6 in the experiment with Mus musculus [18]; 6 in the experiment on Mus musculus [20]; 6 with Mus musculus [4]; 5 with Mus musculus [23]; 4 in the experiment on Mus musculus [7]. Besides, the Toxicity day survivors in the experiment on Mus musculus [8], in the experiment on Mus musculus [12], in the experiment on Mus musculus [25] and in the experiment with Mus musculus [27] was 6 in each case.
